Anti-infective test results gathered from many reports (values: NIAID ChemDB through PubChem).

All rows: whole-cell or culture tests; organism: Candida albicans; read-out: MIC

Rows are shuffled and stem from different studies. An empty or dashed field is not shown.

SMILES,strain or isolate,method,value
O=c1ccc2ccc(O)cc2o1,,,>100 µg/mL
C[C@@H]1[C@H](O)[C@@H](C)/C=C/C=C/CC/C=C/C=C/C=C/C=C/C(O[C@H]2O[C@H](C)[C@@H](O)[C@H](N)[C@@H]2O)CC2O[C@](O)(CC(O)C(O)CCC(O)CC(O)CC(O)CC(=O)O[C@H]1C)CC(O)C2C(=O)O,,agar diffusion,12 µg/mL
CN[C@@H]1[C@H](O[C@@H]2OC[C@@H](O)[C@H](O)[C@H]2O)[C@@H](O)[C@H](O[C@H]2c3cc(C)c(C(=O)OCC(=O)O)c(O)c3-c3c(cc4c(c3O)C(=O)c3cc(OC)cc(O)c3C4=O)[C@@H]2O)O[C@@H]1C,A9540,,>100 µg/mL
Oc1ccc2c(c1)CC(Nc1ccccc1)CC2,,,64 µM
CN[C@@H]1[C@H](O[C@@H]2OC[C@@H](O)[C@H](O)[C@H]2O)[C@@H](O)[C@H](O[C@H]2c3cc(C)c(C(=O)N[C@@H](CN)C(=O)O)c(O)c3-c3c(cc4c(c3O)C(=O)c3cc(OC)cc(O)c3C4=O)[C@@H]2O)O[C@@H]1C,A9540,,>100 µg/mL
C/C(=C/c1cn(C)c2ccccc12)[N+](=O)[O-],,,400 µg/mL
COc1cc(O)c2c(c1)C(=O)c1c(cc3c(c1O)-c1c(cc(C)c(C(=O)NC(C)C(=O)O)c1O)[C@H](OC1COC4C(OC5OCC(O)C(O)C5O)C1OC(=O)N4C)[C@H]3O)C2=O,A9540,,6.3 µg/mL
CC(C)=CC(=O)Nc1c2sscc-2n(C)c1=O,IPA200,,20 µg/mL
C/C(=C\c1c(C)n(C)c2ccccc12)[N+](=O)[O-],,,400 µg/mL
COc1cc(O)c2c(c1)C(=O)c1c(cc3c(c1O)-c1c(cc(C)c(C(=O)NC(C)C(=O)O)c1O)[C@H](OC1OCC(O)C(O)C1O)[C@H]3O)C2=O,A9540,,25 µg/mL
CN[C@@H]1[C@H](O[C@@H]2OC[C@@H](O)[C@H](O)[C@H]2O)[C@@H](O)[C@H](O[C@H]2c3cc(C)c(C(=O)N[C@@H](CO)C(=O)O)c(O)c3-c3c(cc4c(c3O)C(=O)c3cc(OC)cc(O)c3C4=O)[C@@H]2O)O[C@@H]1C,A9540,,25 µg/mL
OC(Cn1cncn1)(Cn1cncn1)c1ccc(F)cc1F,YL 339,broth dilution,512 µg/mL
COc1ccccc1O,,broth dilution,10 µg/mL
C=C(Cl)/C=C/[C@H](O)CC(=C)C[C@H]1OC2[C@@H](O)[C@]3(O)C[C@@H](O)[C@H](C)[C@H](CCC/C=C\[C@@H]4C[C@@H](O)C[C@]5(C[C@H](OC)CC(CC(=O)[C@@H](C)[C@H](OC(C)=O)[C@@H](C)C(=C)C[C@@H]6C[C@@](C)(O)C[C@]7(C[C@H](OC(C)=O)CC(CC(=O)O[C@@H]([C@@H]1O)[C@H]2C)O7)O6)O5)O4)O3,ATCC 90028,,6.25 µg/mL
COc1ccc(C(=O)/C=C/c2ccc(C(=O)N3C/C(=C/c4ccccc4)C(=O)/C(=C\c4ccccc4)C3)cc2)cc1OC,1 clinical isolate,,>32 µg/mL
c1ccc([C@H]2CN3CCSC3=N2)cc1,ATCC 10231,broth dilution,>120 µM
CCN1C(=O)C2(C3=C(C(=O)c4ccccc4C3=O)C3CCCN32)c2ccccc21,,agar diffusion,125 µg/mL
Oc1ccccc1,,broth dilution,>45260 µg/mL
CC(C)C(=O)Nc1c2sscc-2n(C)c1=O,IPA200,,30 µg/mL
O=C1/C(=C/c2ccccc2)CN(C(=O)c2ccc(/C=C/C(=O)c3ccc([N+](=O)[O-])cc3)cc2)C/C1=C\c1ccccc1,1 clinical isolate,,>32 µg/mL
C[C@@H]1[C@H](O)[C@@H](C)/C=C/C=C/CC/C=C/C=C/C=C/C=C/C(O[C@H]2O[C@H](C)[C@@H](O)[C@H](N)[C@@H]2O)CC2O[C@](O)(CC(O)C(O)CCC(O)CC(O)CC(O)CC(=O)O[C@H]1C)CC(O)C2C(=O)O,ATCC 10231,absorbance,0.488 µg/mL
Clc1cc2nc(C3CCNCC3)n(Cc3cccnc3)c2cc1Cl,ATCC 10231,,>100 µM
C[C@H]1[C@H](O)[C@@H](C)/C=C/C=C/C=C/C=C/C=C/C=C/C=C/[C@H](O[C@@H]2O[C@H](C)[C@@H](O)[C@H](N)[C@@H]2O)C[C@@H]2O[C@](O)(C[C@@H](O)C[C@@H](O)CC[C@H](O)[C@@H](O)C[C@@H](O)CC(=O)O[C@H]1C)C[C@H](O)[C@H]2C(=O)O,ATCC 18804,broth dilution / visual reading,0.39 µg/mL
Cc1ccc(C(=O)/C=C/c2ccc(C(=O)N3C/C(=C\c4ccccc4)C(=O)/C(=C/c4ccccc4)C3)cc2)cc1,1 clinical isolate,,>32 µg/mL
COc1cc(O)c2c(c1)C(=O)c1c(cc3c(c1O)-c1c(cc(C)c(C(=O)NC(C)C(=O)O)c1O)[C@H](OC1OC(C)C(N(C)C)C(OC(CO)OCCO)C1O)[C@H]3O)C2=O,A9540,,6.3 µg/mL
O=c1oc2ccccc2c(O)c1C(c1c(O)c2ccccc2oc1=O)c1c[nH]c2ccccc12,,agar diffusion / agar,50 µg/mL
C[C@@H]1CC[C@@]2(OC1)O[C@H]1C[C@H]3[C@@H]4CC=C5C[C@@H](O)[C@H](O)[C@@H](O[C@@H]6OC[C@@H](O)[C@H](O)[C@H]6O)[C@]5(C)[C@H]4CC[C@]3(C)[C@@]1(O)[C@@H]2C,,,≥20 µg/mL
Clc1cc2nc(C3CCNCC3)[nH]c2cc1Cl,ATCC 10231,,>100 µM
O=C(O)c1ccc(/C=C/C(=O)c2ccc([N+](=O)[O-])cc2)cc1,1 clinical isolate,,>32 µg/mL
CCC(C)n1ncn(-c2ccc(N3CCN(c4ccc(OC[C@H]5CO[C@](Cn6cncn6)(c6ccc(Cl)cc6Cl)O5)cc4)CC3)cc2)c1=O,A28924,,0.25 µg/mL
CO[C@H]1CCCC[C@@H](c2ccccc2)OC(=O)[C@@H](C)[C@@]2(O)O[C@H]([C@@H](C)[C@H](O)[C@H]2OC)[C@@H](C)/C=C/[C@H]1OC,CBS 1893,,0.06 µg/mL
CN[C@@H]1[C@H](O[C@@H]2OC[C@@H](O)[C@H](O)[C@H]2O)[C@@H](O)[C@H](O[C@H]2c3cc(C)c(C(=O)N4CCC[C@@H]4C(=O)O)c(O)c3-c3c(cc4c(c3O)C(=O)c3cc(OC)cc(O)c3C4=O)[C@@H]2O)O[C@@H]1C,A9540,,>100 µg/mL
O=[N+]([O-])/C=C/c1c[nH]c2ccccc12,,,>1600 µg/mL
COc1cc2oc(=O)ccc2cc1CC(O)C(C)(C)O,,,250 µg/mL
Clc1cc2nc(C3CCNCC3)n(Cc3ccncc3)c2cc1Cl,ATCC 10231,,>100 µM
CCCCCCCCCCNC1CCc2cccc(OC)c2C1,,,0.0625 µM
O=[N+]([O-])c1ccc(Cn2c(C3CCNCC3)nc3cc(Cl)c(Cl)cc32)cc1,ATCC 10231,,>100 µM
Oc1ccc2c(c1)CCC(Nc1ccc(Cl)cc1)C2,,,2 µM
COc1cc(C)ccc1O,,broth dilution,1300 µg/mL
COc1cc(O)c2c(c1)C(=O)c1c(cc3c(c1O)-c1c(cc(C)c(C(=O)NC(C)C(=O)O)c1O)[C@H](OC1OC(C)CC(=O)C1O)[C@H]3O)C2=O,A9540,,3.1 µg/mL
C=C1CO[C@@]2(O[C@H]3C[C@H]4[C@@H]5CC=C6C[C@@H](O)[C@H](O)[C@@H](O[C@@H]7O[C@H](CO)[C@H](O)[C@H](O)[C@H]7O)[C@]6(C)[C@H]5CC[C@]4(C)[C@H]3[C@@H]2C)[C@@H](O)C1,,,≥20 µg/mL
CCCCCCCCCCCCNC1CCc2ccc(OC)cc2C1,,,4 µM
COc1cc(O)c2c(c1)C(=O)c1c(cc3c(c1O)-c1c(cc(C)c(C(=O)NC(C)C(=O)O)c1O)[C@H](OC1OC(C)C4C(O[C@H](OCCO)CN4C)C1O)[C@H]3O)C2=O,A9540,,6.3 µg/mL
C=C(CCC1(O)O[C@H]2C[C@H]3[C@@H]4CC=C5C[C@@H](O)[C@H](O)[C@@H](O[C@@H]6O[C@H](CO)[C@H](O)[C@H](O)[C@H]6O)[C@]5(C)[C@H]4CC[C@]3(C)[C@H]2[C@@H]1C)CO[C@@H]1O[C@H](CO)[C@@H](O)[C@H](O)[C@H]1O,,,10 µg/mL
CCC(C)c1cc2c(Cl)c3c(c(O)c2c(=O)n1N)-c1c(O)c2c(c4c1[C@@H](C3)OCO4)O[C@@H]1C(OC)=CC=C(O)[C@@H]1C2=O,6 strains,,~38 µg/mL
Cc1ccc(O)cc1,,broth dilution,880 µg/mL
COc1ccc(-c2cc(=O)c3c(O)c(OC)c(O)cc3o2)cc1OC,,,>100 µg/mL
C[C@@H]1[C@H](O)[C@@H](C)/C=C/C=C/C=C/C=C/C=C/C=C/C=C/[C@H](O[C@@H]2O[C@H](C)[C@@H](O)[C@H](N)[C@@H]2O)C[C@@H]2O[C@](O)(C[C@@H](O)[C@H](O)CC[C@@H](O)C[C@@H](O)C[C@@H](O)CC(=O)O[C@H]1C)C[C@H](O)[C@H]2C(=O)O,ATCC 14053,broth dilution,2 µg/mL
C/C(=C\c1c[nH]c2ccccc12)[N+](=O)[O-],,,25 µg/mL
C[C@@H]1CC[C@@]2(OC1)O[C@H]1C[C@H]3[C@@H]4CC=C5C[C@@H](O)[C@H](O)[C@@H](O[C@@H]6OC[C@@H](O)[C@H](O)[C@H]6O[C@@H]6O[C@@H](C)[C@H](O)[C@@H](O)[C@H]6O)[C@]5(C)[C@H]4CC[C@]3(C)[C@@]1(O)[C@@H]2C,,,20 µg/mL
CNC1C(C)OC(O[C@H]2c3cc(C)c(C(=O)NC(C)C(=O)OC)c(O)c3-c3c(cc4c(c3O)C(=O)c3cc(OC)cc(O)c3C4=O)[C@@H]2O)C(O)C1OC1OC(CO)C(O)C(O)C1F,A9540,,12.5 µg/mL
O=c1oc2ccccc2c(O)c1C(c1c(O)c2ccccc2oc1=O)c1coc2ccccc2c1=O,,agar diffusion / agar,25 µg/mL

Repeating the first 7 entries:

SMILES | strain or isolate | method | value
O=c1ccc2ccc(O)cc2o1 |  |  | >100 µg/mL
C[C@@H]1[C@H](O)[C@@H](C)/C=C/C=C/CC/C=C/C=C/C=C/C=C/C(O[C@H]2O[C@H](C)[C@@H](O)[C@H](N)[C@@H]2O)CC2O[C@](O)(CC(O)C(O)CCC(O)CC(O)CC(O)CC(=O)O[C@H]1C)CC(O)C2C(=O)O |  | agar diffusion | 12 µg/mL
CN[C@@H]1[C@H](O[C@@H]2OC[C@@H](O)[C@H](O)[C@H]2O)[C@@H](O)[C@H](O[C@H]2c3cc(C)c(C(=O)OCC(=O)O)c(O)c3-c3c(cc4c(c3O)C(=O)c3cc(OC)cc(O)c3C4=O)[C@@H]2O)O[C@@H]1C | A9540 |  | >100 µg/mL
Oc1ccc2c(c1)CC(Nc1ccccc1)CC2 |  |  | 64 µM
CN[C@@H]1[C@H](O[C@@H]2OC[C@@H](O)[C@H](O)[C@H]2O)[C@@H](O)[C@H](O[C@H]2c3cc(C)c(C(=O)N[C@@H](CN)C(=O)O)c(O)c3-c3c(cc4c(c3O)C(=O)c3cc(OC)cc(O)c3C4=O)[C@@H]2O)O[C@@H]1C | A9540 |  | >100 µg/mL
C/C(=C/c1cn(C)c2ccccc12)[N+](=O)[O-] |  |  | 400 µg/mL
COc1cc(O)c2c(c1)C(=O)c1c(cc3c(c1O)-c1c(cc(C)c(C(=O)NC(C)C(=O)O)c1O)[C@H](OC1COC4C(OC5OCC(O)C(O)C5O)C1OC(=O)N4C)[C@H]3O)C2=O | A9540 |  | 6.3 µg/mL